Measured values from several laboratories, pooled; numbers as filed in NIAID ChemDB.

Shared fields: whole-cell or culture tests; agent: Mycobacterium avium

Neighbouring rows are from separate reports. Blank or dashed fields: not listed here. ECn is the concentration giving n% inhibition of infection, replication or growth. A number after MIC or MFC names an inhibition level or a share of isolates.

smiles,read by,strain or isolate,measure,setting,result
Cc1c(CN2CCSCC2)cc(-c2ccccc2)n1-c1cccc2ccccc12,,,MIC,,>16 µg/mL
O=c1[nH]c(=O)n([C@H]2C[C@H](F)[C@@H](CO)O2)cc1F,,ATCC 25291,EC50,,>50 µg/mL
Fc1cc(Nc2nnc(-c3ccncc3)o2)ccc1Br,broth dilution,MY330/88,MIC100,14 d,>125 µM
Cc1ccc2oc(=S)n(-c3ccc(Cl)cc3)c(=S)c2c1,,MY330/88,MIC,21 d,4 µM
O=C(Nc1cnccn1)c1cc(Br)ccc1O,,MY330/88,MIC,,250 µM
CCCCCCCCOc1cccc(NC(=O)OCCN2CCCCC2)c1,,MY330/88,MIC,,32 µM
COc1ccc2oc(=S)n(-c3ccc(C)cc3)c(=S)c2c1,,MY330/88,MIC,14 d,16 µM
O=C(Nc1cncs1)c1ccccc1O,,MY330/88,MIC,,250 µM
O=c1oc2ccc(F)cc2c(=O)n1-c1cccc([N+](=O)[O-])c1,,CNCTC MY330/88,MIC,,31 µM
Cc1c(CN2CCSCC2)cc(-c2ccc(F)cc2)n1-c1ccc(Cl)cc1,,,MIC,,>16 µg/mL
CCCOc1ccccc1NC(=O)OCCN1CCCCCC1,,MY330/88,MIC,,125 µM
O=c1oc2ccc(Cl)cc2c(=O)n1-c1ccc(C(F)(F)F)cc1,,CNCTC MY330/88,MIC,,8 µM
O=C(NNC(=O)c1ccncc1)Nc1ccc(F)c(C(F)(F)F)c1,broth dilution,MY330/88,MIC100,14 d,>125 µM
Cc1ccc2oc(=O)n(-c3ccc(F)cc3)c(=S)c2c1,,MY330/88,MIC,21 d,4 µM
O=C(NNC(=O)c1ccncc1)Nc1ccc(Cl)c(C(F)(F)F)c1,broth dilution,MY330/88,MIC100,14 d,125 µM
Cc1c(CN2CCN(C)CC2)cc(-c2ccccc2)n1-c1cccc2ccccc12,,,MIC,,>16 µg/mL
Cc1cc(NC(=O)c2cc(Cl)ccc2O)no1,,MY330/88,MIC,,62.5 µM
O=c1[nH]c(=O)n([C@H]2C[C@H](O)[C@@H](CO)O2)cc1F,,ATCC 25291,EC50,,<50 µg/mL
Cc1c(CN2CCSCC2)cc(-c2ccc(F)cc2)n1-c1ccccc1,,,MIC,,>16 µg/mL
COc1ccc2oc(=O)n(-c3ccc(C(F)(F)F)cc3)c(=S)c2c1,,MY330/88,MIC,14 d,125 µM
O=C(Nc1ncn[nH]1)c1cc(F)ccc1O,,MY330/88,MIC,,250 µM
Cc1ccc2oc(=S)n(-c3ccccc3)c(=S)c2c1,,MY330/88,MIC,14 d,4 µM
CCOc1cccc(NC(=O)OCCN2CCOCC2)c1,,MY330/88,MIC,,500 µM
Cc1c(F)c(N2CCNC(C)C2)cc2c1c(=O)c(C(=O)O)cn2C1CC1,,36-1,MIC,,0.5 µg/mL
Cc1ccc2oc(=O)n(-c3ccc(C(F)(F)F)cc3)c(=S)c2c1,,MY330/88,MIC,21 d,32 µM
O=C(Nn1cncn1)c1cc(Br)ccc1O,,MY330/88,MIC,,1000 µM
O=c1oc2ccc(Br)cc2c(=S)n1-c1cccc(F)c1,,MY330/88,MIC,14 d,16 µM
CCCCCOc1ccc(NC(=O)OCC[NH+]2CCCC2)cc1,,MY330/88,MIC,,62.5 µM
COc1ccc(-n2c(=O)oc3ccc(Cl)cc3c2=O)cc1,,CNCTC MY330/88,MIC,,16 µM
CC(=O)OC[C@@H]1CC[C@H](n2ccc(=O)[nH]c2=O)O1,,ATCC 25291,EC50,,>50 µg/mL
CCCCCCCCCCOc1ccccc1NC(=O)OCCN1CCOCC1,,MY330/88,MIC,,32 µM
O=c1oc2ccc(Cl)cc2c(=O)n1-c1cccc([N+](=O)[O-])c1,,CNCTC MY330/88,MIC,,16 µM
O=C(NNC(=O)c1ccncc1)Nc1cc(Cl)cc(Cl)c1,broth dilution,MY330/88,MIC100,14 d,125 µM
S=c1oc2ccc(Br)cc2c(=S)n1-c1ccc(Cl)c(Cl)c1,,MY330/88,MIC,14 d,32 µM
O[C@@H](c1cc(C(F)(F)F)nc2c(C(F)(F)F)cccc12)[C@H]1CCCCN1,broth dilution / radiometric,MAC 101,MIC50,,64 µg/mL
O=c1[nH]c(=O)n([C@H]2C[C@H](F)[C@@H](CO)O2)cc1Br,,ATCC 25291,EC50,,>50 µg/mL
NCC[C@H](O)C(=O)N[C@@H]1C[C@H](N)[C@@H](O[C@H]2O[C@H](CN)[C@@H](O)[C@H](O)[C@H]2O)[C@H](O)[C@H]1O[C@H]1O[C@H](CO)[C@@H](O)[C@H](N)[C@H]1O,,100 strains,MIC90,,6.75 µg/mL
CC(C)(C)c1ccc(NC(=O)NNC(=O)c2ccncc2)cc1,broth dilution,MY330/88,MIC100,21 d,125 µM
O[C@H](c1cc(C(F)(F)F)nc2c(C(F)(F)F)cccc12)[C@@H]1CCCCN1,broth dilution / radiometric,MAC 101,MIC50,,16 µg/mL
Cc1c(CN2CCN(C)CC2)cc(-c2ccccc2)n1-c1ccccc1Cl,,,MIC,,>16 µg/mL
O[C@H](c1cc(C(F)(F)F)nc2c(C(F)(F)F)cccc12)C1CCCCN1,broth dilution / radiometric,MAC 101,MIC50,,32 µg/mL
CCCCCCCOc1cccc(NC(=O)OCCN2CCCCC2)c1,,MY330/88,MIC,,16 µM

Repeating the first 2 entries:

smiles	read by	strain or isolate	measure	setting	result
Cc1c(CN2CCSCC2)cc(-c2ccccc2)n1-c1cccc2ccccc12			MIC		>16 µg/mL
O=c1[nH]c(=O)n([C@H]2C[C@H](F)[C@@H](CO)O2)cc1F		ATCC 25291	EC50		>50 µg/mL